The data set has as its target T1, IRF4 (UniProt Q64287).
T1 sequence (looked up, limits assumed): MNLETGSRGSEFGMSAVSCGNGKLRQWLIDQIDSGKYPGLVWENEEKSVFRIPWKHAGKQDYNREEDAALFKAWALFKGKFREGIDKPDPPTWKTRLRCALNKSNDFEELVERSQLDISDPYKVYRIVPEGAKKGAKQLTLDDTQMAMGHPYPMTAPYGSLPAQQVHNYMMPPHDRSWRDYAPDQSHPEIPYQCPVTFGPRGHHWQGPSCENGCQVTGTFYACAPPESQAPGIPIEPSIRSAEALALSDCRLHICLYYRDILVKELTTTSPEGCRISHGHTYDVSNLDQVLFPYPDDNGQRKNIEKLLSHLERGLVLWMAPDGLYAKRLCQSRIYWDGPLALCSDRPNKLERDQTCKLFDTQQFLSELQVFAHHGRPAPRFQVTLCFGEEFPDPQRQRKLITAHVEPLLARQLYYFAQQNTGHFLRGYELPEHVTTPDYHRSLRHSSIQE
Nature of the data set: EMSA supershift. The conditions noted are these: anti-IRF4 supershift, isotype control anti-pSTAT1, WT self-competition at 2x and 20x; protein in an extract; label: 32P (unlabeled when used as competitor).

Construct, isoform or probe ends are uncertain for at least one entry. At least one result comes from cells or an extract, where the contact may be indirect. Protein sequences can lack the tags named with them.

From paper PMC4125235 come the findings set out here.

In the case of “TTGGTGGTTTCACTTCTAAACA (double strand) [M1 promoter IRF4 site probe (WT)]”, the binding result is “binds”.
